{"source": "ChEMBL document CHEMBL3227964", "about": "(J Med Chem, 1979)", "system": "Escherichia coli", "experiment": "Induction of sensitization to irradiation in Escherichia coli AB1157 under hypoxic condition assessed as reduction in colony formation at 1 mM measured after irradiation", "format": "functional, organism-based", "note": "Activity calls are given as the source filed them. The rule behind the calls is not given here.", "data": [{"smiles": "O=[N+]([O-])c1cn(CCO)c([N+](=O)[O-])n1", "values": [{"measurement": "Activity", "result": "Active"}]}]}
